Test results as given in patent US8815813B2, “Methods for treating immune-mediated Dengue Fever infections and antibody-dependent enhancement of Dengue Fever infections, including Dengue Hemorrhagic Fever and Dengue Shock Syndrome” (priority 2008, dated 2014).

The substances below were run on FcγIIa (R131 allele) (assay: Reverse ELISA: inhibition of PAP-IC binding to FcγIIa (R131 allele) coated plates). Details: PAP pre-incubated with peptide 1 h; positive control 1.599.

In order of falling “OD405 FcγIIa (R131 allele)” value:
1. Ala-Pro-Pro-Cys-Ala-Arg-His-Leu-Gly-Glu-Leu-Val-Trp-Cys-Thr  0.956
2. Asp-Cys-Ala-Phe-His-Leu-Gly-Glu-Leu-Val-Trp-Cys-Thr  0.660
3. Ala-Pro-Pro-Cys-Ala-Trp-His-Leu-Gly-Glu-Leu-Val-Trp-Cys-Thr  0.658
4. Ala-Pro-Pro-Cys-Ala-Phe-His-Leu-Gly-Glu-Leu-Val-Trp-Cys-Thr  0.605
5. Ala-Pro-Pro-Asp-Cys-Ala-Trp-His-Leu-Gly-Glu-Leu-Val-Trp-Cys-Thr  0.509

Same assay, conditions: summary of Table 2 over FcγIIa, FcγIIb and FcγIII

“Ala-Pro-Pro-Asp-Cys-Ala-Trp-His-Leu-Gly-Glu-Leu-Val-Trp-Cys-Thr” was tested, and the “overall inhibition of FcR binding to PAP (ranking in words)” value was “greatest overall inhibition of FcR binding to PAP”.
